Tests used:
[1] = biological target: T1, Biotin-labeled BatCoV-BtkY72 stem helix peptide (Bat SARS-related coronavirus BtKY72 …, UniProt A0A3Q8AKM0, biotin (position not given)); conditions: both partners purified
T1 chain: ESFKQELDKYFKNH

[2] = biological target: T2, SARS-CoV-2 spike stem helix peptide (residues 1146-1159), displayed on yeast (SARS-CoV-2); conditions: partners not purified
T2 chain: DSFKEELDKYFKNH

B1: S2P6 UCA VH Y32Q Fab (Fab, V domains shown)
VH: QVQLVQSGAEVKKPGASVKVSCKASGYTFTSQYMHWVRQAPGQGLEWMGIINPSGGSTSYAQKFQGRVTMTRDTSTSTVYMELSSLRSEDTAVYYCARGSPKGAFDYWGQGTLVTVSS
VL: not shown
Question: Does B1 bind [1]?
Answer: binds

B2: S2P6 UCA VH Y32Q/M48I double mutant Fab (Fab, V domains shown)
VH: QVQLVQSGAEVKKPGASVKVSCKASGYTFTSQYMHWVRQAPGQGLEWIGIINPSGGSTSYAQKFQGRVTMTRDTSTSTVYMELSSLRSEDTAVYYCARGSPKGAFDYWGQGTLVTVSS
VL: not shown
Question: Does B2 bind [1]?
Answer: binds

B3: S2P6 UCA VH M48I Fab (Fab, V domains shown)
VH: QVQLVQSGAEVKKPGASVKVSCKASGYTFTSYYMHWVRQAPGQGLEWIGIINPSGGSTSYAQKFQGRVTMTRDTSTSTVYMELSSLRSEDTAVYYCARGSPKGAFDYWGQGTLVTVSS
VL: not shown
Question: Does B3 bind [1]?
Answer: binds

B4: S2P6 UCA VH S56H Fab (Fab, V domains shown)
VH: QVQLVQSGAEVKKPGASVKVSCKASGYTFTSYYMHWVRQAPGQGLEWMGIINPSGGHTSYAQKFQGRVTMTRDTSTSTVYMELSSLRSEDTAVYYCARGSPKGAFDYWGQGTLVTVSS
VL: not shown
Question: Does B4 bind [1]?
Answer: binds

B5: S2P6 UCA (fully germline-reverted S2P6) in scFv format (scFv, V domains shown)
VH: QVQLVQSGAEVKKPGASVKVSCKASGYTFTSYYMHWVRQAPGQGLEWMGIINPSGGSTSYAQKFQGRVTMTRDTSTSTVYMELSSLRSEDTAVYYCARGSPKGAFDYWGQGTLVTVSS
VL: not shown
Question: Does B5 bind [2]?
Answer: no binding

Reference: publication doi:10.1101/2024.06.06.597810 (bioRxiv, 2024)
